A mixed list of measured activities; the numbers were collected in NIAID ChemDB.

All rows: target-level tests; agent: HIV; target: Protease

Fold resistance: result on the changed form divided by that on wild type. Two numbers with a dash give a range or band. Conditions beyond the fields shown may differ between rows. An empty or dashed field is not shown. ICn is the concentration giving n% inhibition. Inhibition is in % at the dose shown (toxicity tests: loss of growth or viability).

{"smiles": "CC(C)C[C@H](NC(=O)C(Cc1ccccc1)C[C@H](O)[C@H](Cc1ccccc1)NC(=O)[C@H](Cc1ccccc1)NC(=O)[C@H](Cc1ccccc1)NC(=O)OC(C)(C)C)C(=O)N[C@@H](Cc1ccccc1)C(N)=O", "tested at": "100 µM", "endpoint": "inhibition", "result": "0.1–100%"}
{"smiles": "COc1cccc(CN(CC(=O)NCCCC[C@@H](CO)N(CC(C)C)S(=O)(=O)c2ccc(N)cc2)c2ccccc2)c1OC", "endpoint": "Ki", "result": "0.0016 µM"}
{"smiles": "CCCCCCCCCCCCCCCC(=O)N[C@@H](Cc1ccc2ccccc2c1)C(=O)N[C@@H](CCC(=O)O)C(=O)N[C@@H](CC(C)C)C(=O)O", "endpoint": "IC50", "result": "12.5 µM"}
{"smiles": "CNC(=O)[C@@H](NC(=O)[C@H](OCc1ccccc1)[C@H](O)[C@@H](O)[C@@H](OCc1ccccc1)C(=O)N[C@H]1c2ccccc2C[C@H]1O)C(C)C", "changes": "PR-G48V", "endpoint": "fold resistance", "result": "1.07"}
{"smiles": "CC(C)CN(C[C@@H](O)[C@H](Cc1ccccc1)NC(=O)OCc1ccccc1)S(=O)(=O)c1ccc(N)cc1", "endpoint": "IC50", "read by": "fluorescence", "result": "0.012 µM"}
{"smiles": "CN(C(=O)COc1cccc2cnccc12)[C@@H](CC(F)(F)F)C(=O)N[C@@H](Cc1ccccc1)[C@H](O)C(=O)N1CSC[C@H]1C(=O)NC(C)(C)C", "endpoint": "IC50", "read by": "HPLC", "result": "0.0051 µg/mL"}
{"smiles": "Cc1c(N)cccc1C(=O)N[C@@H](Cc1ccccc1)[C@H](O)CN(CC(C)C)S(=O)(=O)c1ccc2ncsc2c1", "endpoint": "IC50", "read by": "fluorescence", "result": "0.006 µM"}
{"smiles": "O=C1N(Cc2ccc(CO)cc2)[C@H](COc2ccccc2)[C@H](O)[C@@H](O)[C@@H](COc2ccccc2)N1Cc1ccc(CO)cc1", "changes": "PR-I84V", "endpoint": "fold resistance", "read by": "fluorescence", "result": "1.74"}
{"smiles": "Cc1cc(SC2=C(O)C[C@@](CCc3ccc(O)cc3)(C(C)C)OC2=O)c(C(C)(C)C)cc1N", "tested at": "1 µM", "endpoint": "inhibition", "read by": "HPLC", "result": "0%"}
{"smiles": "CC(C)CN(C[C@@H](O)[C@H](Cc1ccccc1)NC(=O)[C@@H](C)CS(C)(=O)=O)S(=O)(=O)c1ccc2nc(N)sc2c1", "endpoint": "IC50", "read by": "fluorescence", "result": "0.002 µM"}
{"smiles": "Cc1cccc(C)c1OCC(=O)N[C@@H](Cc1ccccc1)[C@H](O)CN1CC[C@@H](Sc2ccncc2)C[C@H]1C(=O)NC(C)(C)C", "changes": "PR-V32I", "endpoint": "Ki", "read by": "fluorescence", "result": "0.000083 µM"}
{"smiles": "CCC(Cc1ccccc1)c1cc(O)c(C(CC)c2ccccc2)c(=O)o1", "endpoint": "IC50", "result": "<10 µM"}
{"smiles": "Cc1cccc(C)c1OCC(=O)N[C@@H](Cc1ccccc1)[C@H](O)CN(CC(C)C)S(=O)(=O)c1ccc2nc(N)sc2c1", "endpoint": "IC50", "read by": "fluorescence", "result": "0.002 µM"}
{"smiles": "C=CCOC(=O)N[C@@](C=O)(CCN1CCC[C@H]1C(=O)OC)Cc1ccccc1", "endpoint": "IC50", "read by": "FRET", "result": ">1000 µM"}
{"smiles": "CC(C)CN(C[C@@H](O)[C@H](Cc1ccccc1)NC(=O)[C@@H](C)CS(C)(=O)=O)S(=O)(=O)c1ccc2ncsc2c1", "endpoint": "IC50", "read by": "fluorescence", "result": "0.002 µM"}
{"smiles": "CC(C[C@H](NC(=O)COc1cccc2cnccc12)C(=O)N[C@@H](Cc1ccccc1)[C@H](O)C(=O)N1CSC[C@H]1C(=O)NC(C)(C)C)C(F)(F)F", "endpoint": "IC50", "read by": "HPLC", "result": "0.0063 µg/mL"}
{"smiles": "Cc1cc(SC2=C(O)C[C@@](CCc3ccc(O)cc3)(C(C)C)OC2=O)c(C(C)(C)C)cc1N", "changes": "PR-V82F", "endpoint": "fold resistance", "result": "25"}
{"smiles": "CC(C)CN(C[C@@H](O)[C@H](Cc1ccccc1)NC(=O)OCc1cncs1)S(=O)(=O)c1ccc2ncsc2c1", "endpoint": "IC50", "read by": "fluorescence", "result": "0.005 µM"}

Repeating the first 2 entries:

smiles,tested at,changes,endpoint,read by,result
CC(C)C[C@H](NC(=O)C(Cc1ccccc1)C[C@H](O)[C@H](Cc1ccccc1)NC(=O)[C@H](Cc1ccccc1)NC(=O)[C@H](Cc1ccccc1)NC(=O)OC(C)(C)C)C(=O)N[C@@H](Cc1ccccc1)C(N)=O,100 µM,,inhibition,,0.1–100%
COc1cccc(CN(CC(=O)NCCCC[C@@H](CO)N(CC(C)C)S(=O)(=O)c2ccc(N)cc2)c2ccccc2)c1OC,,,Ki,,0.0016 µM